Measurements reported in PubChem BioAssay AID504761 (Drosophila RNAi Screening Center, 2011)

Test: 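Genome-wide fly cell screen for genes dengue virus requires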 (primary screen)
System: D.Mel-2 cells from Drosophila
Reagents: long dsRNA against Drosophila genes
Conditions: infection with dengue virus type 2; dose and infection time not stated
Read-out: 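Cells stained for dengue envelope protein and imaged; percent of infected cells per well on duplicate plates, ranked by infection, with stained nuclei counted for cell number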
Direction: infection score: higher = more virus-infected cells
Active means: 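Low infection ranks in the two replicates (chance level up to 0.065) followed by a retest with a 1.5-fold or larger significant decrease, p below 0.05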
Calls: active = confirmed: knock-down lowers infection; inactive = not picked or not confirmed
The screen tested about 22,000 reagents; this is an unselected part of those with a known target gene and a result. In the full data, 116 (0.52%) got an active call. 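Calls depend on retest data that are not deposited; infection was ranked per plate without normalising between plates; the unit of the infection score is not given.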 Names joined by + are all predicted targets of the reagent. Further read-outs or replicates are left out here. Not given: the amount of reagent, the time to read-out.

predicted target,dsRNA,"infection score, replicate 1","infection score, replicate 2",call
Syn2,DRSC06902,20.9,13.4,inactive
HDAC1,DRSC08696,3.76,8.76,inactive
mam,DRSC05468,8.04,3.49,inactive
mam,DRSC22971,1.71,2.46,inactive
mam,DRSC25768,1.15,0.33,inactive
CG6094,DRSC02927,4.16,5.7,inactive
CG6094,DRSC22705,8.15,4.37,inactive
CG6094,DRSC29084,27.8,14.8,inactive
CG31064,DRSC14756,1.62,5.76,inactive
CG31064,DRSC15941,0.38,1.29,inactive
CG31064,DRSC15942,2.96,2.13,inactive
CG31064,DRSC15943,3.98,4.03,inactive
Jhbp3,DRSC12247,4.26,10.7,inactive
pths,DRSC03171,14.8,7.2,inactive
Vajk2,DRSC02540,14.5,9.77,inactive
Vajk2,DRSC25275,4.01,1.74,inactive
Clc,DRSC11116,8.49,6.52,inactive
Clc,DRSC25617,4.33,3.72,inactive
CG13970,DRSC02311,2.42,14.4,inactive
CG13970,DRSC29509,17.8,3.02,inactive
Pop2,DRSC10537,4.85,2.78,inactive
Pop2,DRSC27971,4.3,3.64,inactive
CG42564,DRSC12518,1.19,2.86,inactive
mahj,DRSC04053,13.9,28.6,inactive
CG13228,DRSC06348,5.43,26.9,inactive
CG13228,DRSC27946,7.43,9.89,inactive
Stip1,DRSC00756,7.01,5.44,inactive
NAAT1,DRSC18300,2.13,2.94,inactive
NAAT1,DRSC25615,3.52,5.65,inactive
polo,DRSC11384,5.61,7.48,inactive
polo,DRSC22359,4.2,1.58,inactive
Gr39a,DRSC01841,0.79,0.5,inactive
Gr39a,DRSC01842,0.18,0.35,inactive
Gr39a,DRSC27181,9.45,20.1,inactive
CG12898,DRSC06213,15.3,7.78,inactive
Mur18B,DRSC20063,5.24,3.37,inactive
Mur18B,DRSC28610,17.4,16.1,inactive
yip2,DRSC03640,21.1,10.1,inactive
Dlg5,DRSC02964,17.9,5.52,inactive
Dlg5,DRSC27257,9.23,33.1,inactive
CG4049,DRSC04443,8.12,6.89,inactive
CG4049,DRSC29138,1.46,2.14,inactive
S6KL,DRSC19349,0.72,13.6,inactive
S6KL,DRSC23147,0.65,3.77,inactive
Act5C,DRSC17723,9.41,4.69,inactive
Act5C,DRSC25024,6.08,14.8,inactive
CG31600,DRSC22541,3.19,1.39,inactive
CG31600,DRSC30096,4.89,10.4,inactive
CG11626,DRSC14336,7.64,2.32,inactive
CG30395,DRSC03896,1.84,1.07,inactive
PGRP-LD + Pmi,DRSC10512,6.92,6.87,inactive
PGRP-LD + Pmi,DRSC10513,2.39,6.68,inactive
psd,DRSC03131,0.92,8.04,inactive
psd,DRSC25415,13.9,11.1,inactive
c(2)M,DRSC01922,11.6,17.5,inactive
CG1275,DRSC08294,9.23,4.46,inactive
dpa,DRSC07604,12.2,5.65,inactive
CG18528,DRSC15340,0.74,5.31,inactive

3 entries already listed, arranged by “infection score, replicate 2”, lowest first.
predicted target,dsRNA,"infection score, replicate 1","infection score, replicate 2",call
Mur18B,DRSC20063,5.24,3.37,inactive
yip2,DRSC03640,21.1,10.1,inactive
Mur18B,DRSC28610,17.4,16.1,inactive
